Values of other authors as cited in US7365050B2, “Methods for modulating a drug-related effect or behavior” (The Regents of the University of California, priority 2003, dated 2008).

Protein sequences, listed by entry. Tags and fused reporters are not part of them.
UniProt Q02294, whole entry: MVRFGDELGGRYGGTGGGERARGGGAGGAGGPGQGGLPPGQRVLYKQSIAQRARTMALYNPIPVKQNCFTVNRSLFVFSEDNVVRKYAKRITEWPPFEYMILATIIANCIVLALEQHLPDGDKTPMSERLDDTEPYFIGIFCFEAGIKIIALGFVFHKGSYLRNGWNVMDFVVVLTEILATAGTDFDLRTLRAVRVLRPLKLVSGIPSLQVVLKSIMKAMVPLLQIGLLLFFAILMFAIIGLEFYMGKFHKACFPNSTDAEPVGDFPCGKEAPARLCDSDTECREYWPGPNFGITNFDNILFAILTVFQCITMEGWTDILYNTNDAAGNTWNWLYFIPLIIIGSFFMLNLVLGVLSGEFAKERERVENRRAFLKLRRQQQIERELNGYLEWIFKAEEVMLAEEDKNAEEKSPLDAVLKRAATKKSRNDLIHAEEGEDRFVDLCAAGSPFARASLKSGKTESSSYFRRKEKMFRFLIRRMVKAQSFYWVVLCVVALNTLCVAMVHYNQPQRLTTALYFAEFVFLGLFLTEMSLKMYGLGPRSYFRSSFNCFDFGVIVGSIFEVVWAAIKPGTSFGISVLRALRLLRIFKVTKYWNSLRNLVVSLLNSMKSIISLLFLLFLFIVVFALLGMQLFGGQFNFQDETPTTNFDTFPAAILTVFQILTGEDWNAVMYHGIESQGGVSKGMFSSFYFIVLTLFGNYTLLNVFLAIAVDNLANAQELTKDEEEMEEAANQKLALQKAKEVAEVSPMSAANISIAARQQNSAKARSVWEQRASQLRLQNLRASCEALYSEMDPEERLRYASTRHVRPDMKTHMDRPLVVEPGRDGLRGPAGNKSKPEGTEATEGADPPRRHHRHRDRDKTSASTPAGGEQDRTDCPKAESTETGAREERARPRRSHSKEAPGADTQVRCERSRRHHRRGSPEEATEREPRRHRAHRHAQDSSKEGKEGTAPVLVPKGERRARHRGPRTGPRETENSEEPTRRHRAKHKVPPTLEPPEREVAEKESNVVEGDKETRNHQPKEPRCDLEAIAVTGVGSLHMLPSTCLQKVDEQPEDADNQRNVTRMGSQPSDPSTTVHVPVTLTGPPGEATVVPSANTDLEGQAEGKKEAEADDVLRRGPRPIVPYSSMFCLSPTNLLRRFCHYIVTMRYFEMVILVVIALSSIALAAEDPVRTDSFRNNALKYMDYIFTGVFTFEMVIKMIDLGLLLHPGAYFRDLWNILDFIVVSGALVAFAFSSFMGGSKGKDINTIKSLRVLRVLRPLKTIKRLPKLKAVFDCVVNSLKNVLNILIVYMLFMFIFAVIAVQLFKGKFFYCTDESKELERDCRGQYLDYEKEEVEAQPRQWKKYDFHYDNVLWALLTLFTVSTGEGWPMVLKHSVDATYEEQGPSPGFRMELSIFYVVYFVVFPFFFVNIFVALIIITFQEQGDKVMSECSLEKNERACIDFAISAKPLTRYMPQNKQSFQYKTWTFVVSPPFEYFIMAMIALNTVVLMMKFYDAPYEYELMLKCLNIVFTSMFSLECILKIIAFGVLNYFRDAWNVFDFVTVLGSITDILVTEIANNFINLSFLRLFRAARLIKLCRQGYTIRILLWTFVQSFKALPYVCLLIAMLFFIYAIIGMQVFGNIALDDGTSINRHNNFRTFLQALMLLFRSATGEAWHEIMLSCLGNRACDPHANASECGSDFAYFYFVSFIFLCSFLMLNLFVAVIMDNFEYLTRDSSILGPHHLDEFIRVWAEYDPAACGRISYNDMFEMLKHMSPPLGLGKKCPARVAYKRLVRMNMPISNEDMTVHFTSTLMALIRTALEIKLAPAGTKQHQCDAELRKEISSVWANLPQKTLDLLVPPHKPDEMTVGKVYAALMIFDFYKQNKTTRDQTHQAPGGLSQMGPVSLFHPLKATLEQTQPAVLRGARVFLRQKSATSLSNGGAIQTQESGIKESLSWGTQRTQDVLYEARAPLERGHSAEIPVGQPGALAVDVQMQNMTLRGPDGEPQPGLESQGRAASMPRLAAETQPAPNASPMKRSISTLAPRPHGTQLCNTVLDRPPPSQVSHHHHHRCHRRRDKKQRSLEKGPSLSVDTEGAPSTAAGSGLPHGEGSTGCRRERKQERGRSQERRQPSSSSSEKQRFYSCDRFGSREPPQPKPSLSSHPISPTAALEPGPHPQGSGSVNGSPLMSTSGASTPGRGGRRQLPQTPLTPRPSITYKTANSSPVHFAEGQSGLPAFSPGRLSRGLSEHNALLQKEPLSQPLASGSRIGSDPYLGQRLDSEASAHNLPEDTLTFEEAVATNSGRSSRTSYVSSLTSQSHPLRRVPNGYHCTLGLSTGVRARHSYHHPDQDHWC

Molecular target: N-type calcium channel (Rattus norvegicus, UniProt Q02294)
Parameters: release of beta-endorphin from primary cultures of hypothalamic neurons; endogenous in cells; host or cells: primary cultures of hypothalamic neurons
Settings: cited from earlier work

In the case of omega-conotoxin GVIA, the “ethanol-stimulated release of beta-endorphin” value is listed as “prevented”.
